## Library screen at single concentrations

The values are deposited in ChEMBL (CHEMBL3988442, “University of Dundee, Small-Polar-MMV Screening Library” (2021)).

Mtb glucose medium: 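Phenotypic screen: M. tuberculosis growth, glucose 7H9 medium, 3 days; the read-out is not stated. Tested at 50 µM. Direction is inferred from retests: higher values go with more growth inhibition. Of about 69,000 compounds tested this way, about 760 (1.1%) reached 50% or more in at least one test.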
Mtb cholesterol medium: 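Growth of Mycobacterium tuberculosis over 4 days (cholesterol / DPPC medium with tyloxapol); the read-out is not stated. Tested at 50 µM. Direction is inferred from retests: higher values go with more growth inhibition. Of about 69,000 compounds tested this way, about 370 (0.54%) reached 50% or more in at least one test.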

The filed quantity is “Percent Effect” (%). The record does not define 0% and 100%; most values in the screen are far below 50% and negative numbers occur (in some assays of this library far below -100). Many other results are left out here, so strong results are more common than in the screen. Two or more numbers in one place are separate tests of the same structure; such repeats can differ widely. A dash means the value is not listed here; it may have been measured.

SMILES | Mtb glucose medium | Mtb cholesterol medium
NC(=O)c1nnn(-c2ccc(Cl)cc2)n1 | 51.2% | -
CCN(C)C(=O)C1(c2ccc(F)cc2F)CCC1 | -19.09% | -16.21%
[H][C@]12CCN(C(=O)C3CCCO3)CC[C@@]1([H])S(=O)(=O)N(CC)C2 (some centres unmarked) | 5.837% & 1.565% | -
Cc1ccnc(NC(=O)C2(n3cnnn3)CCCCC2)c1 | 17.77% | -
Cc1ccc(C(=O)O)c(N2Cc3cnc(C(C)(C)C)nc3C2)n1 | -5.123% & -2.854% | -
O=C(CN(Cc1ccco1)C1CC1)Nc1ccc(Br)cn1 | 56.43% | -
CNC(=O)CS(=O)(=O)Cc1cc(Cl)c2c(c1)OCCO2 | 4.718% | -5.351%
CC(C)c1nnc(CNc2ccc(SC(F)(F)F)cc2)o1 | - | 52.82%
CCSCc1ccc(C(=O)N2CCCN(CC(N)=O)CC2)cc1 | -13.32% | -
CCOc1ccc(N2CCCN=C2NC(=O)c2cccc(C)c2)cc1 | -5.993% | -20.55%
Cc1csc(N2CCN(C(=O)Cc3cccs3)CC2)n1 | -12.96% | -
Cc1ccc(-c2nc(CN3CCOC(Cn4cccn4)C3)cs2)o1 (centres unmarked) | -1.922% | -
O=C(CNc1cccc(S(=O)(=O)C(F)F)c1)Nc1ccccc1 | -6.102% | -3.867%
COc1cccc(CN2CCC(O)(c3ccc(C)cn3)CC2)c1OC | -42.21% & -2.666% | -
CO[C@@H]1CCN(Cc2ccoc2)C[C@@H]1Cc1ccccc1.O=C(O)C(F)(F)F | 5.26% | -
Cc1nc(N2CCN(S(C)(=O)=O)CC2)cc(-n2cnc(C)c2C)n1 | 19.76% | -
[H][C@@]12CCN(Cc3ccco3)CC[C@]1([H])[C@H](COC)CN(C)C2=O | 6.779% & 76.39% | -
O=C(NCC1(O)COCCN(Cc2cccc(O)c2)C1)c1ccccn1 (centres unmarked) | 8.837% | -
O=C(O)C(F)(F)F.[H][C@@]12CN(CC)C[C@]1([H])[C@H](OC)CCN2C(=O)Cc1ccsc1 | - | 17.02%
Cc1cc(NC(=O)NCC(O)c2ccc(F)cc2)n(C)n1 (centres unmarked) | -8.12% | -
CC(=O)N1CCN(C(=O)CN2CCN(c3cccc(C)c3)CC2)CC1 | -2.401% | -
CC(C)(C)Oc1ccc(NCC(=O)NCc2ccco2)cc1 | 4.372% | 11.56%
O=C(c1cc(-c2cccs2)cs1)N1CCSCC1 | 55.56% | -
Cc1nc(=O)c2ccccc2n1C1=CCN(CC(=O)N2CCCC2)CC1 | -13.12% | -
CC(C)(O)CCc1cccc(C(=O)NCC2COCCO2)c1 (centres unmarked) | 14.64% | -10.72%
Cc1ccc(NC2CCCN(CCCc3ccccc3)C2)nn1 (centres unmarked) | -0.4089% | -21.92% & -4.598%
CCc1cn[nH]c1C1CCN(c2cc(C)c3cccc(OC)c3n2)CC1 | 53.09% | -
CNC1CCN(C2CCN(c3ccc(-c4ccco4)cc3)CC2)CC1 | 63.29% & 32.16% | -
CN1CCOC(CNCCCOc2ccc(C#N)cc2)C1 (centres unmarked) | - | 3.338%
Cc1ccc(S(=O)(=O)N2C[C@H](C3CC3)[C@@H](N)C2)cc1F | 14.98% | -
Cc1nc(CC(=O)N2c3ccccc3OCC2C)cs1 (centres unmarked) | 2.268% & 7.542% | -
CCc1nc(C)c(C(=O)NCC2COc3cc(OC)ccc3C2)o1 (centres unmarked) | - | 8.941%
CC(C)NC(=O)C(C)S(=O)(=O)c1cc2c(cc1Cl)OCCO2 (centres unmarked) | 3.789% | -
Br.Cc1ccc(OCCSC2=NCCN2)cc1 | 54.19% | -
Cc1ccccc1N1CCN(CCS(=O)(=O)c2ccc(Br)cc2)CC1 | 18.42% | -
NC(=O)C(NC(=O)c1cc(Cl)c[nH]1)c1ccccc1 (centres unmarked) | 5.707% | -
Cc1nc(N2CCCC2)nc2c1CCN(Cc1ccsc1)CC2.O=C(O)C(F)(F)F | 85.4% & 81.34% | 92.27% & 82.92%
Cl.Cn1nc(C2CCCN(Cc3ccc(F)cc3)C2)c2nccnc21 (centres unmarked) | - | 0.6337%
O=C(O)C(F)(F)F.c1ccc(C[C@H]2CN(Cc3nccs3)CC[C@@H]2OCC2CC2)cc1 | 9.688% | -
O=C1CCNc2ncc(-c3cccc(Cl)c3)cc2CN1C1CC1 | 56.97% | -
COc1ccc(NC(=O)CSC(F)(F)F)cn1 | 9.553% | -11.92%
COC(=O)c1ccc(N2CCC(c3ccccc3)CC2)nn1 | 43.84% | 32.88%
FC(F)(F)c1cccc(OC2CCN(Cc3ncc[nH]3)CC2)c1 | 24.1% | -
Fc1cccc(Cl)c1CNCCOc1ccccn1 | 0.8919% & 97.69% | -
CCCN(C(=O)c1cccnc1)c1nc2c(s1)CCc1c-2cnn1C | 41.92% | -
CS(=O)(=O)N1CCN(c2cc(N3CCCC3CO)ncn2)CC1 (centres unmarked) | 10.09% | -
COc1cccc(C(=O)NCC(O)c2cccs2)c1 (centres unmarked) | 2.619% & 25.96% | -
Cc1ccc(CN[C@@H]2COC[C@H]2c2ccc(F)cc2)cc1C.O=C(O)CC(O)(CC(=O)O)C(=O)O | 56.52% | -

The first 4 entries again:

{"smiles": "NC(=O)c1nnn(-c2ccc(Cl)cc2)n1", "Mtb glucose medium": 51.2}
{"smiles": "CCN(C)C(=O)C1(c2ccc(F)cc2F)CCC1", "Mtb glucose medium": -19.09, "Mtb cholesterol medium": -16.21}
{"smiles": "[H][C@]12CCN(C(=O)C3CCCO3)CC[C@@]1([H])S(=O)(=O)N(CC)C2", "stereo": "some centres unmarked", "Mtb glucose medium": "5.837 & 1.565"}
{"smiles": "Cc1ccnc(NC(=O)C2(n3cnnn3)CCCCC2)c1", "Mtb glucose medium": 17.77}